Pooled drug test results. Numbers come from NIAID ChemDB, via PubChem.

Shared fields: whole-cell or culture tests; agent: Aspergillus fumigatus; read-out: MIC

Blank or dashed fields: not listed here. Rows are shuffled and stem from different studies.

compound,strain,value
CN[C@@H]1[C@H](O[C@@H]2OC[C@@H](O)[C@H](O)[C@H]2O)[C@@H](O)[C@H](O[C@H]2c3cc(C)c(C(=O)NCC(=O)O)c(O)c3-c3c(cc4c(c3O)C(=O)c3cc(OC)cc(O)c3C4=O)[C@@H]2O)O[C@@H]1CO,IAM2034,6.3 µg/mL
CCC1C=C(c2ccc(Cl)cc2)C(=O)O1,231,62.5 µM
C[C@@H](N1CCN(c2ccc(OCC(F)(F)C(F)F)cc2)C1=O)C(O)(Cn1cncn1)c1ccccc1F,TIMM1728,0.5 µg/mL
O=Cc1cc(-c2ccc(Cl)cc2Cl)on1,Clinical isolates,50 µg/mL
O=C(N/N=C/c1cc([N+](=O)[O-])ccc1O)c1ccc(I)cc1,G10,1.6 µg/mL
C[C@@H](N1CCN(c2ccc(-n3cnnn3)cc2)C1=O)[C@](O)(Cn1cncn1)c1ccc(F)cc1F,IFO6344,>64 µg/mL
Cc1onc(-c2cccc(Br)c2)c1C=O,Clinical isolates,12.5 µg/mL
CCC1C=C(c2cccnc2)C(=O)O1,231,>125 µM
Cc1onc(-c2ccc(Cl)cc2Cl)c1C=O,Clinical isolates,25 µg/mL
CN(Cc1cccc2ccsc12)/N=C\C=C\c1ccccc1,-,>64 µg/mL
C[C@@H](n1ccn(-c2ccc(OC(F)(F)C(F)F)cc2)c1=O)C(O)(Cn1cncn1)c1ccccc1F,TIMM1728,2 µg/mL
CCC1C=C(c2cccc(Cl)c2)C(=O)O1,231,>125 µM
CN(Cc1cccc2ccsc12)/N=C\c1ccc(F)cc1,-,>64 µg/mL
COc1ccc(C2=CC(C)OC2=O)cc1,231,>125 µM
Nc1ccc(S(=O)(=O)Nc2ccnn2-c2ccccc2)cc1,IFM 41362,64 µg/mL
CC1C=C(c2ccc(C(F)(F)F)cc2)C(=O)O1,231,>125 µM
CC(C)CCCCCCCCC1CC(=O)NCC(=O)N[C@@H](CCCN)C(=O)N[C@@H](C(C)C)C(=O)N1,TIMM0063,>80 µg/mL
CN(Cc1cccc2ccccc12)/N=C\c1ccccc1F,-,>64 µg/mL
c1ccc(C(c2cnn(-c3ccccc3)c2)n2cncn2)cc1,-,>200 µM
CCCCCOc1ccc(-c2ccc(-c3ccc(C(=O)N[C@H]4C[C@@H](O)[C@@H](O)NC(=O)[C@@H]5[C@@H](O)[C@@H](C)CN5C(=O)[C@H]([C@H](C)O)NC(=O)[C@H]([C@H](O)[C@@H](O)c5ccc(O)cc5)NC(=O)[C@@H]5C[C@@H](O)CN5C(=O)[C@H]([C@H](C)O)NC4=O)cc3)cc2)cc1,92-245,>50 µg/mL
CCc1c(C(c2ccccc2)n2cncn2)cnn1-c1ccccc1,-,>200 µM
C[C@@H](N1CCN(c2ccc(OC(F)(F)F)cc2)C1=O)C(O)(Cn1cncn1)c1ccc(F)cc1F,TIMM1728,0.5 µg/mL
O=Cc1cc(-c2cccc(Br)c2)no1,Clinical isolates,>50 µg/mL
Cc1cc(NS(=O)(=O)c2ccc(N)cc2)nc(C)n1,IFM 47450,≥256 µg/mL
c1ccc(-c2c(C(c3ccccc3)n3cncn3)cnn2-c2ccccc2)cc1,-,>200 µM
Cc1ccc(/C=N\N(C)Cc2cccc3ccsc23)cc1,-,>64 µg/mL
C[C@@H](n1ccn(-c2ccc(OCC(F)(F)C(F)F)cc2)c1=O)C(O)(Cn1cncn1)c1ccc(F)cc1F,IFO6344,2 µg/mL
Cn1ncc(C(c2ccccc2)n2cncn2)c1-c1ccccc1,-,>200 µM
CC1=CC[C@@H]2[C@H](C1)C2(C)C,F17,0.16 µg/mL
Cc1nnc(NS(=O)(=O)c2ccc(N)cc2)s1,IFM 41362,≥256 µg/mL
Cc1ccc(C(C)C)cc1O,F05,0.16 µg/mL
CCC(C)CCCCCCC1CC(=O)NCC(=O)N[C@@H](CCCN)C(=O)N[C@@H](C(C)CC)C(=O)N1,IFM41088,>80 µg/mL
O=Cc1cc(-c2ccccc2Br)no1,Clinical isolates,50 µg/mL
C[C@@H](N1CCN(c2ccc(OC(F)(F)C(F)F)cc2)C1=O)C(O)(Cn1cncn1)c1ccc(F)cc1F,TIMM1728,0.25 µg/mL
C=CCN(CC=C)C(C)C(O)(Cn1cncn1)c1ccc(F)cc1F,KA-01,1.56 µg/mL
Cc1noc(NS(=O)(=O)c2ccc(N)cc2)c1C,IFM 51126,128 µg/mL
CCCc1c(C(c2ccccc2)n2cncn2)cnn1-c1ccccc1,-,>200 µM
CC(N1CCCCC1)C(O)(Cn1cncn1)c1ccc(F)cc1F,KA-01,1.56 µg/mL
C[C@@H](N1CCN(c2ccc(-n3cnnn3)cc2)C1=O)[C@@](O)(Cn1cncn1)c1ccc(F)cc1F,IFO6344,>64 µg/mL
CCC1C=C(c2ccc(Br)cc2)C(=O)O1,231,>125 µM
C[C@@H](N1CCN(c2ccc(F)cc2)C1=O)C(O)(Cn1cncn1)c1ccc(F)cc1F,437,8 µg/mL
Cc1c(C(c2ccccc2)n2ccnc2)cnn1-c1ccccc1,-,>200 µM
CC1C=C(c2ccc(Br)cc2)C(=O)O1,231,>125 µM

The last 5 rows once more:

compound	strain	value
C[C@@H](N1CCN(c2ccc(-n3cnnn3)cc2)C1=O)[C@@](O)(Cn1cncn1)c1ccc(F)cc1F	IFO6344	>64 µg/mL
CCC1C=C(c2ccc(Br)cc2)C(=O)O1	231	>125 µM
C[C@@H](N1CCN(c2ccc(F)cc2)C1=O)C(O)(Cn1cncn1)c1ccc(F)cc1F	437	8 µg/mL
Cc1c(C(c2ccccc2)n2ccnc2)cnn1-c1ccccc1	-	>200 µM
CC1C=C(c2ccc(Br)cc2)C(=O)O1	231	>125 µM